Earlier results, collected in paper PMC4148168 (Journal of Medicinal Chemistry, 2014).

Tested on: anthrax lethal factor
Details: read-out: IC50 against anthrax lethal factor; cited from earlier work

SMILES: O=c1ccccn1O [1,2-HOPO]
- IC50: ~5 mM
